# Target: dimeric human ACE2 (Sino Biological, 10108-H02H) (human) (UniProt Q9BYF1)
# Experiment: BLI
substance,measurement,value
SARS-CoV-2 Omicron BA.1 spike extracellular domain trimer (domain or fragment),Kd,0.75 nM

# From article PMC9152305, “Structural and biochemical mechanism for increased infectivity and immune evasion of Omicron BA.2 variant compared to BA.1 and their possible mouse origins” (2022)
